Anti-infective test results gathered from many reports (values: NIAID ChemDB through PubChem).

Shared fields: growth or infection tests; organism: Candida albicans

An empty or dashed field is not shown. Conditions beyond the fields shown may differ between rows. ECn: concentration that inhibits the pathogen or its effect by n%. A number after MIC or MFC names an inhibition level or a share of isolates.

structure	measure	conditions	strain or isolate	method	result
COc1ccc(C(Cc2ccc(Cl)cc2)n2ccnc2)cc1	MIC90	-	28 strains	-	16 µg/mL
O=C(OCC1COC(Cn2ccnc2)(c2ccc(-c3ccccc3)cc2)O1)c1ccccc1	MIC90	-	44 strains	-	32 µg/mL
CNc1ccc(C(=O)CC(O)CCC(C)C2OC(=O)CC(O)CC(=O)CC(O)CC(O)CC(O)CC(O)CC3(O)CC(O)C(C(=O)NCCN(C)C)C(CC(O[C@@H]4O[C@H](C)[C@@H](O)[C@H](NC(=O)CN5CCN(C)CC5)[C@@H]4O)/C=C/C=C/C=C/C=C\C=C/C=C/C=C/C2C)O3)cc1	MIC	-	200	-	0.03 µg/mL
CCCCCCCCCCCCOC[n+]1cccc(NCn2cnc3ccccc32)c1	MBC	-	ATCC 10231	-	17.5 µM
Nc1[nH]c(=O)ncc1F	EC90	pH 7	10 isolates	broth dilution	2 µg/mL
CNc1ccc(C(=O)CC(O)CCC(C)C2OC(=O)CC(O)CC(=O)CC(O)CC(O)CC(O)CC(O)CC3(O)CC(O)C(C(=O)N4CCN(C)CC4)C(CC(O[C@@H]4O[C@H](C)[C@@H](O)[C@H](NC(=O)CN(C)C)[C@@H]4O)/C=C/C=C/C=C/C=C\C=C/C=C/C=C/C2C)O3)cc1	MIC	-	73	-	0.0075 µg/mL
O=Cc1cc(-c2c(Cl)cccc2Cl)no1	MIC	-	-	-	25 µg/mL
CCCCCCCCCCCOC[n+]1cccc(NCn2nnc3ccccc32)c1	MIC	-	ATCC 10231	-	139 µM
COc1ccc(C(=O)C(Cc2ccc(Cl)cc2Cl)c2ccc(Cl)cc2)cc1	MIC90	-	28 strains	-	256 µg/mL
CCC(C)n1ncn(-c2ccc(N3CCN(c4ccc(OC[C@H]5CO[C@](Cn6cncn6)(c6ccc(Cl)cc6Cl)O5)cc4)CC3)cc2)c1=O	Geometric mean MIC	-	13 isolates fluconazole-resistant	-	1.62 µg/mL
CCOc1cc2c(cc1F)n([O-])c(C)c(Cl)[n+]2=O	MIC	-	Clinical isolate 5	-	31.25 µg/mL
Cc1c(O)cccc1C(=O)N[C@@H](CSc1ccccc1)[C@H](O)CN1C[C@H]2CCCC[C@H]2C[C@H]1C(=O)NC(C)(C)C	MIC	-	I109A	-	>64 µg/mL
CCCCCNC(=O)C1C(O)CC2(O)CC(O)CC(O)CC(O)CC(O)CC(=O)CC(O)CC(=O)OC(C(C)CCC(O)CC(=O)c3ccc(NC)cc3)C(C)/C=C/C=C/C=C\C=C/C=C/C=C/C=C/C(O[C@@H]3O[C@H](C)[C@@H](O)[C@H](N)[C@@H]3O)CC1O2	MIC	-	200	-	0.12 µg/mL
Cc1c(Sc2ccccc2)[n+](=O)c2cc(C(F)(F)F)ccc2n1[O-]	MIC	-	Clinical isolate 14	-	15.6 µg/mL
COc1ccc(C(=O)C(Cc2ccc(Cl)cc2Cl)c2ccc(OC)cc2)cc1	EC50	-	28 strains	-	>256 µg/mL
CC(=O)N1CCN(c2ccc(OC[C@H]3CO[C@](Cn4ccnc4)(c4ccc(-c5ccccc5)cc4)O3)cc2)CC1	MIC50	-	44 strains	-	>256 µg/mL
Cc1onc(-c2ccccc2)c1C=O	EC50	-	-	-	>50 µg/mL
COc1ccc(C(Cc2ccc(Cl)cc2)n2cncn2)cc1	MIC50	-	28 strains	-	16 µg/mL
Cc1onc(-c2ccc(Cl)cc2)c1C=O	EC50	-	-	-	34.87 µg/mL
CNc1ccc(C(=O)CC(O)CCC(C)C2OC(=O)CC(O)CC(=O)CC(O)CC(O)CC(O)CC(O)CC3(O)CC(O)C(C(=O)N4CCN(CCO)CC4)C(CC(O[C@@H]4O[C@H](C)[C@@H](O)[C@H](NC(=O)CN5CCN(CCO)CC5)[C@@H]4O)/C=C/C=C/C=C/C=C\C=C/C=C/C=C/C2C)O3)cc1	MIC	-	200	-	0.12 µg/mL
CCCCCCCCCOC[n+]1cccc(NCn2cnc3ccccc32)c1	MIC	-	ATCC 10231	-	1200 µM
C[C@H]1[C@H](O)[C@@H](C)/C=C/C=C/C=C/C=C/C=C/C=C/C=C/[C@H](O[C@@H]2O[C@H](C)[C@@H](O)[C@H](N)[C@@H]2O)C[C@@H]2O[C@](O)(C[C@@H](O)C[C@@H](O)CC[C@H](O)[C@@H](O)C[C@@H](O)CC(=O)O[C@H]1C)C[C@H](O)[C@H]2C(=O)O	EC50	-	66506	broth dilution	2 µM
CS(=O)(=O)OCC1COC(Cn2ccnc2)(c2ccc(-c3ccccc3)cc2)O1	MIC90	-	44 strains	-	128 µg/mL
CNc1ccc(C(=O)CC(O)CCC(C)C2OC(=O)CC(O)CC(=O)CC(O)CC(O)CC(O)CC(O)CC3(O)CC(O)C(C(=O)NCCN(C)C)C(CC(O[C@@H]4O[C@H](C)[C@@H](O)[C@H](NC(=O)CN5CCN(CCO)CC5)[C@@H]4O)/C=C/C=C/C=C/C=C\C=C/C=C/C=C/C2C)O3)cc1	MIC	-	73	-	0.12 µg/mL
CN(CCCC#CC(C)(C)C)c1cccc2c1CCC(=O)N2	MIC	-	Clinical isolate 23	-	15.6 µg/mL
CCCCCCCCOCn1c[n+](CNC(=O)c2cccnc2)c2ccccc21	MIC	-	ATCC 10231	-	1161 µM
COc1ccc(CC(c2ccc(OC)cc2)n2cncn2)cc1	MIC50	-	28 strains	-	64 µg/mL
CC(=O)N1CCN(c2ccc(OC[C@H]3CO[C@](Cn4ccnc4)(c4ccc(Cl)cc4Cl)O3)cc2)CC1	MIC	pH 5	10 isolates	broth dilution	0.06 µg/mL
Cc1c(S(=O)(=O)c2ccccc2)[n+](=O)c2cc(Cl)ccc2n1[O-]	MIC	-	Clinical isolate 12	-	31.25 µg/mL
Cc1onc(-c2cccc(Cl)c2)c1C=O	EC50	-	-	-	26.97 µg/mL
C[C@@H](c1ncncc1F)[C@](O)(Cn1cncn1)c1ccc(F)cc1F	MIC	pH 6	10 isolates	broth dilution	0.25 µg/mL
CNc1ccc(C(=O)CC(O)CCC(C)C2OC(=O)CC(O)CC(=O)CC(O)CC(O)CC(O)CC(O)CC3(O)CC(O)C(C(=O)N4CCCCC4)C(CC(O[C@@H]4O[C@H](C)[C@@H](O)[C@H](N)[C@@H]4O)/C=C/C=C/C=C/C=C\C=C/C=C/C=C/C2C)O3)cc1	MIC	-	200	-	0.03 µg/mL
CCC(c1ccc(OC)cc1)C(c1ccc(OC)cc1)n1cnnc1	MIC90	-	28 strains	-	>256 µg/mL
Clc1ccccc1C(c1ccccc1)(c1ccccc1)n1ccnc1	MIC	pH 4	10 isolates	broth dilution	0.25 µg/mL
O=Cc1cc(-c2ccccc2Cl)no1	EC50	-	-	-	26.15 µg/mL
CCCCCCCCOc1ccc(-c2ccc(C(=O)NC3CC(NCCN)CNC(=O)[C@@H]4[C@@H](O)[C@@H](C)CN4C(=O)[C@@H](CO)NC(=O)[C@H]([C@H](O)Cc4ccccc4)NC(=O)[C@@H]4C[C@@H](O)CN4C(=O)[C@H]([C@@H](C)O)NC3=O)cc2)cc1	MIC	-	2438	-	0.5 µg/mL
CCC(C)CC(C)CCCCCCCCC(=O)N[C@H]1C[C@@H](O)[C@@H](OCCN)NC(=O)[C@@H]2[C@@H](O)CCN2C(=O)[C@H]([C@@H](O)CCN)NC(=O)[C@H]([C@H](O)[C@@H](O)c2ccc(O)cc2)NC(=O)[C@@H]2C[C@@H](O)CN2C(=O)[C@H]([C@H](C)O)NC1=O	MIC50	-	Fluconazole-susceptible	-	0.01 µg/mL
CCC(C)n1ncn(-c2ccc(N3CCN(c4ccc(OC[C@H]5CO[C@](Cn6cncn6)(c6ccc(Cl)cc6Cl)O5)cc4)CC3)cc2)c1=O	MIC50	-	37 isolates	-	0.0313 µg/mL
OC[C@H]1CO[C@](Cn2ccnc2)(c2ccc(-c3ccccc3)cc2)O1	Mean MIC	-	44 strains	-	143.9 µg/mL
CCCCCCCCCOC[n+]1cccc(NCn2nnc3ccccc32)c1	MIC	-	ATCC 10231	-	299 µM

Again, the opening 6 rows:

structure	measure	conditions	strain or isolate	method	result
COc1ccc(C(Cc2ccc(Cl)cc2)n2ccnc2)cc1	MIC90	-	28 strains	-	16 µg/mL
O=C(OCC1COC(Cn2ccnc2)(c2ccc(-c3ccccc3)cc2)O1)c1ccccc1	MIC90	-	44 strains	-	32 µg/mL
CNc1ccc(C(=O)CC(O)CCC(C)C2OC(=O)CC(O)CC(=O)CC(O)CC(O)CC(O)CC(O)CC3(O)CC(O)C(C(=O)NCCN(C)C)C(CC(O[C@@H]4O[C@H](C)[C@@H](O)[C@H](NC(=O)CN5CCN(C)CC5)[C@@H]4O)/C=C/C=C/C=C/C=C\C=C/C=C/C=C/C2C)O3)cc1	MIC	-	200	-	0.03 µg/mL
CCCCCCCCCCCCOC[n+]1cccc(NCn2cnc3ccccc32)c1	MBC	-	ATCC 10231	-	17.5 µM
Nc1[nH]c(=O)ncc1F	EC90	pH 7	10 isolates	broth dilution	2 µg/mL
CNc1ccc(C(=O)CC(O)CCC(C)C2OC(=O)CC(O)CC(=O)CC(O)CC(O)CC(O)CC(O)CC3(O)CC(O)C(C(=O)N4CCN(C)CC4)C(CC(O[C@@H]4O[C@H](C)[C@@H](O)[C@H](NC(=O)CN(C)C)[C@@H]4O)/C=C/C=C/C=C/C=C\C=C/C=C/C=C/C2C)O3)cc1	MIC	-	73	-	0.0075 µg/mL